Results: the supplement of paper PMC12637763
Some of the results follow. Env chains of viruses from a treatment-interruption trial, translated from the printed DNA. IC50 / IC80 of two broadly neutralizing antibodies; lower = more sensitive virus; >50 µg/ml means not reached and <0.001 µg/ml is below the lowest dose. No active / inactive call.

B1: HIV-1 Env, rebound clone, antibody arm (protein)
chain: MKVKGTKRNYQHLWRWGIMLLGILMICSAADKFWVTVYYGVPVWKEASTTLFCASDAKAYDTEVHNVWATHACVPTDPNPQEIFLENVTEDFNMWENNMVEQMHEDVISLWDQSLKPCVKLTPLCVTLNCTDLKNVTESGNATATGGNNNRTVENEGEIKNCSFNITTNALDVVPIEDSNDNSSNGGNYSSYRMIHCNTSTITQACPKVSFEPIPIHYCTPAGFAILKCNNNTFSGKGPCNNVSTVQCTHGIRPVVSTQLLLNGSLAEEEIVIRSKNFSQNTDIIIVQLNESVIINCTRPNNNTRRGVHIGPGRAFYATGDIIGDIRRAYCNISRAEWNKTLGRVAEKLREQFPNKTIVFNQSSGGDPEIATHSFNCGGEFFYCYTSKLFNSTWNDTEGKVEEGDGNITFPCRIKQIINLWQEVGKAMYAPPISGIIKCESNITGLLLTRDGGNDNNTNEIFRPWGGNMKDNWRSELYKYKVVKIEPIGVAPTKAKRRVVQREKRAVGALGAMFLGFLGAAGSTMGAASLTLTVQARLLLSGIVQQQNNLLRAIEAQQHMLQLTVWGIKQLQARVLAVERYLRDQQLLGIWGCSGKLICTTAVPWNDSWSNNKTYDDIWENMTWMAWEKEIDNYTGIIYNLLEISQNQQEKNEQELLELDKWASLWNWFDITHWLWYIKIFIMIVGGLIGLRIVFTVLSIINRVRQGYSPLSFQTHLLTSRGPDRPEGIEEEGGEQDRGRSIRLVDGFLALFWDDLRSLCLFSYHRLRDLLLIAARIVELLGRRGWGILKYWWSLLQYWSQELNKSAISLLNATAIAVAEGTDRIIEVVQRTGRAILHIPVRIRQGLERALQ
B2: HIV-1 Env, rebound clone, antibody arm (protein)
chain: MKVKGTKRNYQHLWRWGIMLLGILMICSAADKFWVTVYYGVPVWKEASTTLFCASDAKAYDTEVHNVWATHACVPTDPNPQEIFLENVTEDFNMWENNMVEQMHEDVISLWDQSLKPCVKLTPLCVTLNCTDLKNVTESGNATATGGNNNRTVENEGEIKNCSFNITTSIRDKVTKEYALFNALDVVPIEDSNDNSSNGGNYSSYRMIHCNTSTITQACPKVSFEPIPIHYCTPAGFAILKCNNNTFSGKGPCNNVSTVQCTHGIRPVVSTQLLLNGSLAEEEIVIRSKNFSQNTDIIIVQLNESVIINCTRPNNNTRRGVHIGPGRAFYATGDIIGDIRRAYCNISRAEWNKTLGRVAEKLREQFPNKTIVFNQSSGGDPEIATHSFNCGGEFFYCYTSKLFNSTWNDTEGKVEEGDGNITFPCRIKQIINLWQEVGKAMYAPPISGIIKCESNITGLLLTRDGGNDNNTNEIFRPWGGNMKDNWRSELYKYKVVKIEPIGVAPTKAKRRVVQREKRAVGALGAMFLGFLGAAGSTMGAASLTLTVQARLLLSGIVQQQNNLLRAIEAQQHMLQLTVWGIKQLQARVPAVERYLRDQQLLGIWGCSGKLICTTAVPWNDSWSNNKTYDDIWENMTWMAWEKEIDNYTGIIYNLLEISQNQQEKNEQELLELDKWASLWNWFDITHWLWYIKIFIMIVGGLIGLRIVFTVLSIINRVRQGYSPLSFQTHLLTSRGPDRPEGIEEEGGEQDRGRSIRLVDGFLALFWDDLRSLCLFSYHRLRDLLLIAARIVELLGRRGWGILKYWWSLLQYWSQELNKSAISLLNATAIAVAEGTDRIIEVVQRAGRAILHIPVRIRQGLERALQ
B3: HIV-1 Env, rebound clone, antibody arm (protein)
chain: MKVKGTKRNYQHLWRWGIMLLGILMICSAADKFWVTVYYGVPVWKEASTTLFCASDAKAYDTEVHNVWATHACVPTDPNPQEIFLENVTEDFNMWENNMVEQMHEDVISLWDQSLKPCVKLTPLCVTLNCTDLKNVTESGNATATGGNNNRTVENEGEIKNCSFNITTSIRDKVTKEYALFNALDVVPIEDSNDNSSNGGNYSSYRMIHCNTSTITQACPKVSFEPIPIHYCTPAGFAILKCNNNTFSGKGPCNNVSTVQCTHGIRPVVSTQLLLNGSLAEEEIVIRSKNFSQNTDIIIVQLNESVIINCTRPNNNTRRGVHIGPGRAFYATGDIIGDIRRAYCNISRAEWNKTLGRVAEKLREQFPNKTIVFNQSSGGDPEIATHSFNCGGEFFYCYTSKLFNSTWNDTEGKVEEGDGNITFPCRIKQIINLWQEVGKAMYAPPISGIIKCESNITGLLLTRDGGNDNNTNEIFRPWGGNMKDNWRSELYKYKVVKIEPIGVAPTKAKRRVVQREKRAVGALGAMFLGFLGAAGSTMGAASLTLTVQARLLLSGIVQQQNNLLRAIEAQQHMLQLTVWGIKQLQARVLAVERYLRDQQLLGIWGCSGKLICTTAVPWNDSWSNNKTYDDIWENMTWMAWEKEIDNYTGIIYNLLEISQNQQEKNEQELLELDKWAGLWNWFDITHWLWYIKIFIMIVGGLIGLRIVFTVLSIINRVRQGYSPLSFQTHLLTSRGPDRPEGIEEEGGEQDRGRSIRLVDGFLALFWDDLRSLCLFSYHRLRDLLLIAARIVELLGRRGWGILKYWWSLLQYWSQELNKSAISLLNATAIAVAEGTDRIIEVVQRAESYPPHTCKNKTGLGKGFAITWGASGQNAAGWNGLK

What follows are binders tested against antibody 10-1074 (assay: neutralization IC50; higher = virus less sensitive to the antibody).
Protocol: (§1)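 Pseudovirus bearing the Env chain mixed with antibody, from 50 µg/ml in fivefold dilutions, on TZM-bl reporter cells, in duplicate.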

Row | Binder | neutralization IC50 [µg/mL]
1 | B1 | 0.173
2 | B2 | 0.402
3 | B3 | 0.274

These binders were tested against antibody 3BNC117 in the same assay as above.
Protocol: as §1

Row | Binder | neutralization IC50 [µg/mL]
4 | B1 | > 50
5 | B2 | > 50
6 | B3 | > 50

Each binder was assayed against antibody 10-1074 (assay: neutralization IC80; higher = virus less sensitive to the antibody).
Protocol: as §1

Row | Binder | neutralization IC80 [µg/mL]
7 | B1 | 1.07
8 | B2 | 1.77
9 | B3 | 1.27

The binders below were run against antibody 3BNC117 in the same assay as above.
Protocol: as §1

Row | Binder | neutralization IC80 [µg/mL]
10 | B1 | > 50
11 | B2 | > 50
12 | B3 | > 50
